Reference: ChEMBL document CHEMBL4052757, “Bistacrines as potential antitrypanosomal agents” (Bioorg Med Chem, 2017)

Chains of the proteins cited; added tags and fusions are not shown. Lines headed by an entry give the natural chain unless they say otherwise; changes in a name come on top. Residues count along the entry.
UniProt P28593: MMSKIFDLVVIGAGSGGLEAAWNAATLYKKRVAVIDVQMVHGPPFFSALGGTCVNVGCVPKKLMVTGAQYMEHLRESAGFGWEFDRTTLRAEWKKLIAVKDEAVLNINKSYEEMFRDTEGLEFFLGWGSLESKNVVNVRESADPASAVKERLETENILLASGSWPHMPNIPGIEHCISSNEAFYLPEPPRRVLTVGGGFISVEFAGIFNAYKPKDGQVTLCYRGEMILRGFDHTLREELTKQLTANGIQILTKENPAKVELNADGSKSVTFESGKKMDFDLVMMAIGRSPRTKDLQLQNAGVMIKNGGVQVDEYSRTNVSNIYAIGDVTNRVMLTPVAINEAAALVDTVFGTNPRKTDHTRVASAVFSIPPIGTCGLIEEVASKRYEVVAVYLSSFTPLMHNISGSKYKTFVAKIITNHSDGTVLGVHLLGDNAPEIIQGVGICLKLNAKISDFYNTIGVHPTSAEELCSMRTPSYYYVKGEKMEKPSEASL
UniProt Q95PM0, 1-450: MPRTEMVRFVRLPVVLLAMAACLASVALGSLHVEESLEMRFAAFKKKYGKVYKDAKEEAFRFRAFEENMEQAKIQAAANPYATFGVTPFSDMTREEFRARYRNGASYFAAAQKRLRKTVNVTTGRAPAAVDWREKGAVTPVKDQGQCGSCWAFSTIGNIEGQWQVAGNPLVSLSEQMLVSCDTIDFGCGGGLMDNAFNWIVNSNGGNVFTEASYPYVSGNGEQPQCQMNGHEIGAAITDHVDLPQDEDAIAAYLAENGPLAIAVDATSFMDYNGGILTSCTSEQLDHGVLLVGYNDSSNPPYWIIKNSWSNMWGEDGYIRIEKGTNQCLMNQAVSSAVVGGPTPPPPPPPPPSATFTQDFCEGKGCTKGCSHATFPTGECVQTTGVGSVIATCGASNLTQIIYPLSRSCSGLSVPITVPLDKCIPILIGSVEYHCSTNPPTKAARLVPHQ

Legend:
[1] = Inhibition of human glutathione reductase at 50 uM using glutathione disulfide as substrate relative to control
[2] = system: Trypanosoma brucei brucei; assay: Antitrypanosomal activity against Trypanosoma brucei brucei TC221 after 48 hrs by alamar blue assay
[3] = molecular target: Trypanothione reductase (Trypanosoma cruzi, UniProt P28593); assay: Competitive inhibition of Trypanosoma cruzi trypanothione reductase using varying levels of trypanothione disulfide as substrate by Lineweaver--burk plot analysis
[4] = Selectivity index, ratio of IC50 for mouse J774.1 cells to IC50 for Trypanosoma brucei brucei TC221 measured after 48 hrs
[5] = system: Trypanosoma brucei brucei; assay: Antitrypanosomal activity against Trypanosoma brucei brucei TC221 after 72 hrs by alamar blue assay
[6] = molecular target: Rhodesain (Trypanosoma brucei rhodesiense, UniProt Q95PM0); assay: Inhibition of Trypanosoma brucei rhodesiense rhodesain using Cbz-Phe-Arg-AMC as substrate measured for 10 mins by spectrofluorometric analysis
[7] = Inhibition of Trypanosoma brucei trypanothione reductase using varying levels of trypanothione disulfide as substrate by Lineweaver-burk plot analysis
[8] = Inhibition of human glutathione reductase at 2 uM using glutathione disulfide as substrate relative to control

Row | Structure (SMILES) | inhibition (INH) [1] [%] | IC50 [2] [nM] | Ki [3] [nM] | Ratio IC50 [4] | IC50 [5] [nM] | IC50 [6] [nM] | Ki [7] [nM] | inhibition (INH) [8] [%]
1 | c1ccc2c(NCCCCCCCCCNc3c4c(nc5ccccc35)CCCC4)c3c(nc2c1)CCCC3 | 19 | 130 | 400 | 13.8 | 160 | 19400 | 400 | 2
2 | c1ccc2c(NCCNc3c4c(nc5ccccc35)CCCC4)c3c(nc2c1)CCCC3 |  | 3600 |  | 12.6 | 5100 |  |  | 
3 | c1ccc2c(NCCCCNc3c4c(nc5ccccc35)CCCC4)c3c(nc2c1)CCCC3 |  | 750 |  | 11.1 | 2100 |  |  | 
4 | c1ccc2c(NCCCNc3c4c(nc5ccccc35)CCCC4)c3c(nc2c1)CCCC3 |  | 3300 |  | 12.9 | 5600 |  |  | 
